# Measurements published in paper PMC12703749, “H2O2–Responsive Anticancer Prodrug: Synthesis, Precision Deuteration in Search of In Vivo Metabolites, and Activation Pathway” (Journal of Medicinal Chemistry, 2025).
# Legend:
# Aqueous solubility = settings: pH 7.4, 80% PBS and 20% MeCN, n = 3
# [1] = tested on: synthetic 49-mer DNA duplex (11); assay: DNA interstrand cross-link (ICL) formation, denaturing PAGE
# [2] = tested on: MDA-MB-468 xenograft tumors; assay: In vivo efficacy in MDA-MB-468 xenograft model; settings: 5 mg/kg IP
# MDA-MB-468 cells = assay: Cell viability assay (CellTiter-Glo), MDA-MB-468; settings: MDA-MB-468 (cancer), 48 h, 37 °C, n = 3
# MCF-10A cells = assay: Cell viability assay (CellTiter-Glo), MCF-10A; settings: MCF-10A versus MDA-MB-468
smiles,measurement,setting,value
CCc1cc(N(CCCl)CCCl)ccc1B(O)O,solubility,Aqueous solubility,74 µM
same,incubation time to maximal ICL yields,"[1]; 0.5 mM 10a, 1 mM H2O2, rt, n = 2",approximately 15 h
same,EC50,"[1]; read-out: EC50 of DNA ICL formation, with H2O2 (H2O2:10a = 2:1), rt, average of two experiments",3280 µM
same,tumor growth inhibition rate (IR),"[2]; 8 weeks, IR = [1 – (mean treated/mean control tumor volume)] × 100",89%
same,mean final tumor volume,"[2]; 5 days per week, week 8, n = 3",264 ± 197 mm^3
same,tumor weight,"[2]; end of treatment, n = 3",201 ± 134 mg
same,final tumor volume relative to the control group,[2]; week 8,approximately 11%
same,IC50,MDA-MB-468 cells,5.1 µM
same,fold higher IC50 in MCF-10A than in MDA-MB-468,MCF-10A cells,3 fold
